The results in this text go back to US20210292397A1 (LA TROBE UNIVERSITY, published 2021).

For this assay, the target named is T1, human fibronectin (human, UniProt P02751 32-2477).
T1 construct: also called FN; full-length (FL) fibronectin
The assay can be described thus: ELISA with a fibronectin-specific polyclonal antibody (FIG. 15F). On the technique in general: An ELISA detects its analyte on a solid surface through an enzyme-linked reagent.

B1:  (other)
chain: TDSTVSTDPVTLNTEKTTLDQDVVINGDNKITAVTIETSDSDKDLNVTFGGHDITAASTVNQDFVEGVKVSGNKNVVIAATASTITAQGEGTYVRTAMVIDSTGDVVVAGGNFVAKNEKGSATGISLEATTGNNLTLAGTTINAQGNKSYSNGSTAIFAQKGNLLQGFDGDATDNITLAASNIINGGIETIVTAGNKTGIHTVNLNIAAGSVIGAANNKQTIYASASAQGAGSATQNLNLSVAASTIYSDVLALSESENSASTTTNVNMNVAASYWEGNAYTFNSGDKAGSDLDINLSASSVWKGKVSGAGDASVSLQNGSVWNVTGSSTVDALAVKDSTVNITKATVNTGTFASQNGTLIVDASSENTLDISGKASGDLRVYSAGSLDLINEQTAFISTGKDSTLKATGTTEGGLYQYDLTQGADGNFYFVKNTHKASNASSVIQAMAAAPANVANLQADTL
Take B1: the binding result is reported as “no binding”.
